Measurements: the supplement of paper PMC9931576
Human monoclonal antibodies against the spike receptor-binding domain (heavy:light variable regions). IC50 against pseudoviruses bearing the spike of naturally observed variants; lower = stronger; >10 µg/ml means not reached at the top dose. No active / inactive call. The stated detection limit is 0.0005 µg/ml; values near or below 0.001 µg/ml lie at the floor of the assay.

B1: BD55-5417 (protein)
chain 1: QLHLQESGPGLVKPSETLSLTCAVSGDSLRYSSYWWGWIRQPPGKGPEWIASIWYSGSSYSNPSLKSRVTISVDTSKNQFSLMLSSVTAADTAVYYCARGLLQEPVSDWLSSYLNWFDPWGQGILVTVSS
chain 2: EIVVTQSPATLSVSPGERATLSCRASQSVSSDLAWYQQKRGQAPRLLIYGASTRAAGIPDRFSGSGSGTEFTLTINSLESEDFAVYYCQQYNDFNTFGQGTKVEIK
B2: BD55-5418 (protein)
chain 1: QITLKESGPTLVKPTQTLTLTCTFSGFSLSTTGVGVSWIRQPPGKALEWLAVIYWDDDKHYSPSLKSRLTITKDTSKNQVVLTMTNMDPVDTATYYCAHLEWPKGYFYYYFGMDVWGQGTTVTVSS
chain 2: EIVLTQSPGTLSLSPGERATLSCRASQSVTSTYLAWYQQKPGQAPRLLIYSASSRATGIPDRFSGSGSGTDFTLTISRLEPDDFAVYYCHLYGSSLYTFGQGTKVEIK
B3: BD55-5435 (protein)
chain 1: EVQLVESGGGPVKPGGSLRLSCAASGFTFSASGMNWVRQAPGKGLEWVSSISSSGSLVFYADSVKGRFTMSRDNAKNSLYLQMNSLKAEDTAVYYCARTDSSAYDHYFDYWGQGTLVTVSS
chain 2: DIQMTQSPSSLSASVGDRVTISCRASQGIRNSLAWYQQKAGKAPKLLLHGSSRLQSGVPSRFSGSGSGTDYTLTISSLQPEDFATYYCQQYYETPQVTFGQGTKLEIK
B4: BD55-1061 (protein)
chain 1: EVQLVESGGGLIQPGGSLRLSCVVSGFTVSRNYMSWVRQAPGKGLEWVSLIHPGGSTFFAESVKDRFTMSRDNYKNTLYLQMDSLGVEDTAVYYCARMPYYANLGSESWGQGTLVTVSS
chain 2: DIQMTQTPSSLSAFVGDRVTITCQARQDISKYLNWYQQKPGKAPKLLIYDASNLETGVPSRFSGSGSGTNFTFTISSLQPEDVATYYCQHYDNVPITFGQGTRLEIK
B5: BD55-5448 (protein)
chain 1: EVQLVESGGGVVQPGGSLRLSCVASGFTFDDYDMHWVRQAPGKGLEWVSLINGDGHSPYYADSVKGRFTISRDNRKNSLYLQMNSLRSEDTALYYCGKDISCSGGSCKWAQTLIDHWGQGTLVTVSS
chain 2: QSVLTQPPSVSGAPGQRVTIPCTGSSSNIGAGYDVHWYQQLPGTAPKLLIFGNTNRPSGVPDRFSGSKSGTSASLAITGLQAEDEADYYCQSYDSTQSGSWVFGGGTKLTVL
B6: BD55-5457 (protein)
chain 1: QAQLVQSGAEVKKPGASVKVSCKASGYTLTSYGFSWVRQAPGQGLEWMGWINSYNGNTKITQKFQGRVSMTTDTSTSTAYMEVRSLRSDDTAVYYCARGYEYYDMLTGDYTFHYNAMDVWGQGTTVTVSS
chain 2: EIVLAQSPGTLSLSPGHRATLSCRASQSITNNFLAWYQQKPGQAPRLLIYGASSRATGIPDRFSGSGSGTDFTLTISRLEPEDFAVYYCQQYGGSVTFGGGTKVEIK

target: SARS-CoV-2 Omicron BA.1 spike pseudovirus; assay: pseudovirus neutralization IC50; higher = weaker neutralization
Procedure: (§1)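 Single-round VSV luciferase pseudovirus mixed with antibody dilutions for 1 h and put on Huh-7 cells for about a day; IC50 from the dose curve.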

Binder	pseudovirus neutralization IC50
B1	> 10 µg/mL
B2	5.49 µg/mL
B3	> 10 µg/mL
B4	0.0145 µg/mL
B5	> 10 µg/mL
B6	> 10 µg/mL

target: SARS-CoV-2 Omicron BA.2 spike pseudovirus; assay: as above
Procedure: as §1

Binder	pseudovirus neutralization IC50
B1	> 10 µg/mL
B2	9.55 µg/mL
B3	> 10 µg/mL
B4	0.0158 µg/mL
B5	> 10 µg/mL
B6	> 10 µg/mL

target: SARS-CoV-2 Omicron BA.2.75 spike pseudovirus; assay: as above
Procedure: as §1

Binder	pseudovirus neutralization IC50
B1	> 10 µg/mL
B2	6.8 µg/mL
B3	> 10 µg/mL
B4	0.357 µg/mL
B5	> 10 µg/mL
B6	> 10 µg/mL

target: SARS-CoV-2 Omicron BA.5 spike pseudovirus; assay: as above
Procedure: as §1

Binder	pseudovirus neutralization IC50
B1	> 10 µg/mL
B2	7.51 µg/mL
B3	> 10 µg/mL
B4	0.0845 µg/mL
B5	> 10 µg/mL
B6	> 10 µg/mL

target: SARS-CoV-2 Omicron BQ.1.1 spike pseudovirus; assay: as above
Procedure: as §1

Binder	pseudovirus neutralization IC50
B1	> 10 µg/mL
B2	3.14 µg/mL
B3	> 10 µg/mL
B4	> 10 µg/mL
B5	> 10 µg/mL
B6	> 10 µg/mL

target: SARS-CoV-2 Omicron XBB spike pseudovirus; assay: as above
Procedure: as §1

Binder	pseudovirus neutralization IC50
B1	> 10 µg/mL
B2	4.9 µg/mL
B3	> 10 µg/mL
B4	> 10 µg/mL
B5	> 10 µg/mL
B6	> 10 µg/mL

target: SARS-CoV-2 early D614G spike pseudovirus; assay: as above
Procedure: as §1

Binder	pseudovirus neutralization IC50
B1	> 10 µg/mL
B2	3.29 µg/mL
B3	> 10 µg/mL
B4	0.00714 µg/mL
B5	1.31 µg/mL
B6	> 10 µg/mL
